A mixed list of measured activities; the numbers were collected in NIAID ChemDB.

Shared fields: target-level tests; agent: HIV-1; protein: Integrase; method: 3′ processing; endpoint: IC50

An empty or dashed field is not shown. ICn: concentration for n% inhibition. Lines come from different laboratories, so protocols vary.

SMILES,conditions,value
Nc1ccn(C2CC(O)C(COP(=O)(O)OC3CC(n4cnc5c(=O)[nH]c(N)nc54)OC3COP(=O)(O)O)O2)c(=O)n1,,>100 µM
COc1nc(=O)[nH]c2c1C(c1ccc(Br)cc1)c1c(OC)nc(=O)[nH]c1O2,,208 µM
COc1ccc(NC(=O)C/C(C)=N/N=C(N)N)c([N+](=O)[O-])c1,Mg2+,>200 µM
O=C(O)C(=O)/C=C(\O)c1ccc(O)c(O)c1,,3.9 µM
Clc1nc(Cl)c2c(n1)Oc1nc(Cl)nc(Cl)c1C2c1ccccc1,,74 µM
O=C1c2c(ccc(O)c2O)CN1Cc1ccccc1,,>333 µM
Cc1cn(C2CC(O)C(COP(=O)(O)OC3CC(n4cnc5c(N)ncnc54)OC3COP(=O)(O)O)O2)c(=O)[nH]c1=O,,7 µM
COc1ccc(/C=C/C(=O)O[C@H]2[C@H](O[C@@H]3O[C@@H](C)[C@H](O)[C@@H](O)[C@H]3O)[C@@H](O)[C@H](OCCc3ccc(O)c(OC)c3)O[C@@H]2CO)cc1O,,>100 µM
COC(=O)C(=O)c1c(-c2ccc(Cl)c(Cl)c2)[nH]c2[nH]n(-c3ccccc3)c(=O)c2c1=O,,143 µM
Cc1cn(C2CC(O)C(COP(=O)(O)OC3CC(n4cnc5c(=O)[nH]c(N)nc54)OC3COP(=O)(O)O)O2)c(=O)[nH]c1=O,,22 µM
C[C@@H]1O[C@@H](O[C@@H]2[C@@H](O)[C@H](OCCc3ccc(O)c(O)c3)O[C@H](COC(=O)/C=C/c3ccc(O)c(O)c3)[C@H]2O)[C@H](O)[C@H](O)[C@H]1O,,13.7 µM
O=C(NC(=O)c1cn(CCN2CCNCC2)c(=O)[nH]c1=O)OCc1ccccc1,Mg2+,>200 µM
N=C(CC(=O)c1cn(Cc2ccc(F)cc2)cc1-c1ccccc1)C(=O)O,,8.8 µM
CC(=O)c1cc(C(=O)CC(=O)Nc2ccccc2)sc1Nc1ccccc1,,100 µM
O=c1oc2ccccc2c(O)c1Cc1c(O)c2ccccc2oc1=O,,>100 µM
COC(=O)C(=O)c1c(C(=O)OC)nc2nnc(N)n2c1-c1ccc(O)c(OC)c1,,48 µM
Nc1ccn(C2CC(OP(=O)(O)OCC3OC(n4cnc5c(N)ncnc54)CC3OP(=O)(O)OCC3OC(n4cnc5c(N)ncnc54)CC3O)C(COP(=O)(O)O)O2)c(=O)n1,,42 µM
Nc1c(Br)cc2c([nH]c(=O)c3cc(Br)ccc32)c1Br,Mn2+,60 µM
COC(=O)C(=O)/C=C(\O)c1ccc(O)c(O)c1,,>100 µM
Nc1nc2c(ncn2C2CC(O)C(COP(=O)(O)OC3CC(n4cnc5c(N)ncnc54)OC3COP(=O)(O)O)O2)c(=O)[nH]1,,15 µM
COc1cc(/C=C/c2ccc3ccc(C(=O)O)c(O)c3n2)cc(O)c1O,,1 µM
O=C1c2ccc(O)c(O)c2C(=O)N1Cc1ccc(F)c(F)c1,,48 µM
O=c1[nH]c2c(c(=O)[nH]1)C(c1ccccc1)c1c([nH]c(=O)[nH]c1=O)O2,,22.4 µM
CCOc1ccc(C(C2=C(O)c3ccccc3C(=O)C2=O)C2=C(O)c3ccccc3C(=O)C2=O)cc1OC,,>100 µM
CC(=O)C(N=Nc1ccc(S(=O)(=O)Nc2ccccn2)cc1)C(=O)Nc1ccccc1C,Mn2+,55 µM
O=C(O)C(=O)/C=C(\O)c1ccc2cc(O)c(O)cc2c1,,1.9 µM
O=C1C(=O)c2ccccc2C(O)=C1CSc1ccc(Cl)cc1,,>100 µM
O=C(O)C(=O)/C=C(\O)c1ccccc1,,>100 µM
O=c1[nH]c(=S)[nH]c2c1C(c1ccc(Cl)cc1)c1c([nH]c(=S)[nH]c1=O)O2,,0.9 µM
CC(=O)Oc1cc(OC(C)=O)c2c(c1)C(=O)c1cc(C)cc(OC(C)=O)c1C2=O,Mn2+,>200 µM
O=C1c2c(O)ccc(O)c2C(=O)C2C1C[C@H](O)[C@H](O)[C@@H]2O,,30 µM
CCCCCC(=O)c1c(O)cc2c(c1O)C(=O)c1c(O)cc(O)cc1C2=O,Mg2+,>200 µM
Cc1cc(O)c2c(c1)C(=O)C(c1c(C)cc3c(c1O)C(=O)C1OC1C3=O)=CC2=O,,3.6 µM
Cc1cc(=O)[nH]c2c(OCOc3cccc4c(C)cc(=O)[nH]c34)cccc12,Mg2+,>200 µM
COc1ccc(OC)c(-c2cc(=O)c3c(OC)c(OC)c(OC)c(OC)c3o2)c1,,>250 µM
COC(=O)C(=O)/C=C(\O)c1ccc2cc(O)c(O)cc2c1,,11.3 µM
CN1C(C(=O)Nc2ccccn2)=C(O)c2ccccc2S1(=O)=O,,190 µM
O=C(Nc1ccc([N+](=O)[O-])cc1)C(=S)NN1C(=O)/C(=C\c2ccc(Cl)cc2)SC1=S,,>100 µM